# Source: ChEMBL document CHEMBL3228013 (J Med Chem, 1979)
# How the values were obtained:
# Mus musculus [1] = assay: Toxicity in ip dosed mouse allografted with mouse L1210 cells; type: organism-based; settings: in vivo
# Outline: (§1)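 Female or male mice bearing L1210 lymphoid leukemia were tested under the NCI standard protocol. Dosing was ip, day 1 only, in aqueous Tween-80, at halved doses starting at 500 mg/kg and generally ending at 62.5 mg/kg. Mean survival time was assessed on day 30, and T/C ≥125% was taken as active.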
# Mus musculus [2] = assay: Toxicity in mouse allografted with mouse L1210 cells at 500 mg/kg, ip; type: organism-based; design: dose 500 mg/kg, route intraperitoneal; settings: in vivo; outline: as §1
Structure (SMILES),MTD (Mus musculus [1]),Activity (Mus musculus [2])
NP(=O)(Oc1ccc([N+](=O)[O-])cc1)N(CCCl)CCCl (configuration not stated),62.5 mg/kg,–
Cc1ccc(NP(=O)(Cl)N(CCCl)CCCl)cc1 (configuration not stated),–,Non-toxic
